# RC index of single-base changes in HIV-1 Gag

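Random point mutant libraries of HIV-1 NL4-3, one for each of seven fragments, were passaged in CEM T lymphocytes. The RC index is the frequency of a change after passage round 2 divided by its frequency in the plasmid library.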

Protein: Gag of HIV-1 NL4-3, numbered from its first residue. Gag is numbered as the whole polyprotein.
Effects on overlapping genes or RNA elements are not listed.

RC index: lower means poorer replication; rough cut-offs are 0.1 (lethal) and 0.2 (tolerated). A change reads original residue, position, new residue. Input reads are the counts in the plasmid library. Base changes are numbered along pNL4-3. Clones carried about five changes per kilobase, which can drag down the index of neutral changes. An index over 1, which the authors read as above wild type, was rare (1.9% of all changes in the genome).

| mutation | base | region | input reads | replication capacity index |
|---|---|---|---|---|
| S129R | C1176G | MA | 72 | 0.0305 |
| Q130H | A1179T | MA | 404 | 0.0163 |
| N131H | A1180C | MA | 77 | 0.0285 |
| N131D | A1180G | MA | 142 | 0.0309 |
| N131S | A1181G | MA | 151 | 0.0291 |
| N131I | A1181T | MA | 80 | 0.0549 |
| N131K | T1182A | MA | 164 | 0.0134 |
| Y132N | T1183A | MA | 102 | 0.0646 |
| Y132H | T1183C | MA | 60 | 0.0732 |
| Y132F | A1184T | MA | 279 | 0.0551 |
| P133R | C1187G | CA | 76 | 0.0289 |
| I134L | A1189T | CA | 364 | 0.0241 |
| I134M | A1191G | CA | 191 | 0.0460 |
| V135M | G1192A | CA | 492 | 0.116 |
| V135L | G1192C | CA | 68 | 0.0323 |
| V135L | G1192T | CA | 243 | 0.0181 |
| V135E | T1193A | CA | 151 | 0.0436 |
| V135A | T1193C | CA | 226 | 0.117 |
| Q136E | C1195G | CA | 154 | 0.0428 |
| Q136P | A1196C | CA | 35 | 0.0627 |
| Q136L | A1196T | CA | 225 | 0.0390 |
| N137I | A1199T | CA | 144 | 0.0458 |
| N137K | C1200A | CA | 56 | 0.157 |
| N137K | C1200G | CA | 80 | 0.0275 |
| L138I | C1201A | CA | 169 | 0.169 |
| L138H | T1202A | CA | 129 | 0.0851 |
| L138R | T1202G | CA | 33 | 0.0666 |
| Q139E | C1204G | CA | 146 | 0.0752 |
| Q139H | G1206C | CA | 33 | 0.0666 |
| G140R | G1207A | CA | 238 | 0.138 |
| G140A | G1208C | CA | 98 | 0.0448 |
| Q141K | C1210A | CA | 50 | 0.132 |
| Q141E | C1210G | CA | 46 | 0.0477 |
| Q141R | A1211G | CA | 314 | 0.0839 |
| Q141L | A1211T | CA | 348 | 0.0252 |
| Q141H | A1212C | CA | 42 | 0.0523 |
| Q141H | A1212T | CA | 231 | 0.0475 |
| M142L | A1213T | CA | 216 | 0.0407 |
| M142K | T1214A | CA | 327 | 0.0537 |
| M142T | T1214C | CA | 249 | 0.0176 |
| V143I | G1216A | CA | 565 | 0.463 |
| V143L | G1216C | CA | 128 | 0.0686 |
| V143E | T1217A | CA | 194 | 0.0453 |
| H144D | C1219G | CA | 103 | 0.0213 |
| H144Q | T1221A | CA | 253 | 0.0347 |
| Q145K | C1222A | CA | 130 | 0.321 |
| Q145P | A1223C | CA | 35 | 0.0627 |
| Q145L | A1223T | CA | 220 | 0.0399 |
| Q145H | G1224C | CA | 74 | 0.0297 |
| A146P | G1225C | CA | 95 | 0.139 |
| A146S | G1225T | CA | 159 | 0.0276 |
| A146D | C1226A | CA | 62 | 0.0354 |
| A146G | C1226G | CA | 36 | 0.183 |
| I147V | A1228G | CA | 266 | 0.0330 |
| I147L | A1228T | CA | 377 | 0.489 |
| I147K | T1229A | CA | 277 | 0.0476 |
| I147T | T1229C | CA | 256 | 0.129 |
| S148A | T1231G | CA | 45 | 0.0488 |
| S148L | C1232T | CA | 164 | 0.241 |
| P149A | C1234G | CA | 62 | 0.0354 |
| P149R | C1235G | CA | 81 | 0.0271 |
| P149L | C1235T | CA | 352 | 0.0749 |
| T151P | A1240C | CA | 32 | 0.0686 |
| T151A | A1240G | CA | 226 | 0.0486 |
| T151S | A1240T | CA | 239 | 0.0551 |
| T151S | C1241G | CA | 54 | 0.0813 |
| T151I | C1241T | CA | 99 | 0.288 |
| L152S | T1244C | CA | 173 | 0.0508 |
| L152F | A1245T | CA | 202 | 0.0761 |
| N153D | A1246G | CA | 128 | 0.103 |
| N153Y | A1246T | CA | 273 | 0.0322 |
| N153T | A1247C | CA | 92 | 0.0239 |
| N153S | A1247G | CA | 274 | 0.0401 |
| N153I | A1247T | CA | 96 | 0.0229 |
| N153K | T1248G | CA | 38 | 0.0578 |
| A154T | G1249A | CA | 280 | 0.235 |
| W155S | G1253C | CA | 58 | 0.0757 |
| V156L | G1255C | CA | 74 | 0.0594 |
| V156E | T1256A | CA | 392 | 0.0693 |
| V156G | T1256G | CA | 211 | 0.0368 |
| K157E | A1258G | CA | 509 | 0.0648 |
| K157R | A1259G | CA | 282 | 0.0344 |
| K157N | A1260T | CA | 937 | 0.0290 |
| V158I | G1261A | CA | 594 | 0.140 |
| V158A | T1262C | CA | 405 | 0.0766 |
| V159A | T1265C | CA | 391 | 0.0694 |
| E161G | A1271G | CA | 219 | 0.0568 |
| A163T | G1276A | CA | 395 | 0.144 |
| P166Q | C1286A | CA | 91 | 0.429 |
| P166L | C1286T | CA | 182 | 0.0976 |
| E167G | A1289G | CA | 160 | 0.0333 |
| V168I | G1291A | CA | 451 | 0.138 |
| V168L | G1291C | CA | 52 | 0.0341 |
| V168L | G1291T | CA | 90 | 0.0592 |
| V168E | T1292A | CA | 187 | 0.0380 |
| V168A | T1292C | CA | 170 | 0.115 |
| I169L | A1294T | CA | 328 | 0.0596 |
| I169T | T1295C | CA | 278 | 0.0511 |
| P170T | C1297A | CA | 58 | 0.153 |
| M171L | A1300C | CA | 31 | 0.0573 |
| M171V | A1300G | CA | 326 | 0.0763 |
| M171T | T1301C | CA | 241 | 0.0368 |

From the data files of Al-Mawsawi et al. 2014, doi:10.1186/s12977-014-0124-6.